The values that follow come from paper PMC12360793 (2025).

In the test the target is PnNL2018B S1-hFc (PnNL2018B (bat MERSr-CoV sampled in …)). Nature of the test: BLI. (In general: Biolayer interferometry detects binding as a change in optical thickness at a sensor tip.)

B1: m46 (domain or fragment)
chain: QSLTTEEKAREFLDKFNSEAENWSHESALASWDYNTNINDKNAQKMNEADSKWSAFYKEHSKLAQGFPLQEIQNSTIKLQLQILQQNGSSVLTAEKSKRLSTILTTMSTIYSTGKVCNPNNPQQCFTLSGLEDIMEKSKDYHQRLWIWEGWRSEVGKQLRPLYEEYVALKNEMARGNNYKDYGDYWRGDYETEGGDGYNYSRNHLIEDVDRIFLEIKPLYEQLHAYVRAKLMNAYPSRISPTGCLPAHLLGDMWGRFWTNLYNLTVPFEKKQNIDVTDTMKKQSWDAEKIFKEAEKFYLSVGLHNMTPEFWNNSMLTEPSDGRQVVCHPTAWDLGKNDFRIKMCTKVTMDDFLTAHHEMGHIQYDMAYAKQPYLLRNGANEGFHEAVGEIMSLSAATPKHLKDLGLLAQNYPEDYETEINFLLKQALNIVGTLPFTYMLEKWRWMVFEGKIPKEQWMEKWWEMKREIVGVVEPLPHDETYCDPASLFHVANDYSFIRYFTRTILEFQFQEALCQIANHTGPLHKCDISNSTEAGKQLKNMLELGKSKPWTFALEQIARTKEMDAKPLLNYFKPLFSWLKELNGNSVGWSADWSPYSEQSIKVRISLKSALGEKAYEWNDNEMYLFRSSVAYAMRVYFLKVKNETIPFRAEDVWVSDEKIRVSFKFFVTSPTNVSDIIPRSEVEDAIRMSRGRINDAFRLDDKTLEFLGIQPTLGPPYQPPVT
By koff is commonly meant the first-order rate constant of dissociation. The molecule B1 came in with a koff of 0.0019 s⁻¹.
